## Results of single-concentration screens

Data taken from ChEMBL document CHEMBL3988442, “University of Dundee, Small-Polar-MMV Screening Library” (2021).

Mtb glucose medium: 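Growth of Mycobacterium tuberculosis over 3 days (7H9 medium with glucose and tyloxapol); the read-out is not stated. Tested at 500 µM. The record gives no direction; compounds that gave an IC50 in retests scored well above the rest, so higher reads as more growth inhibition. Size under these conditions: about 18,000 compounds, about 1,400 of them at 50% or above in at least one test.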
Mtb cholesterol medium: 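Whole-cell growth test on Mycobacterium tuberculosis, read after 4 days in a medium based on cholesterol and the lipid DPPC; the read-out is not stated. Compounds at 500 µM. Direction is inferred from retests: higher values go with more growth inhibition. Of about 18,000 compounds tested this way, about 900 (5%) reached 50% or more in at least one test.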

The filed quantity is “Percent Effect” (%). The record does not define 0% and 100%; most values in the screen are far below 50% and negative numbers occur (in some assays of this library far below -100). This is part of a subset picked to be rich in strong results. A dash means the value is not listed here; it may have been measured.

structure | Mtb glucose medium | Mtb cholesterol medium
Cc1nnc(CCNC(=O)C(O)CC(C)C)s1 (centres unmarked) | - | -0.3328
COC(C(=O)NCCn1cccn1)c1ccccc1 (centres unmarked) | 19.16 | -
CCNc1cccc(OC)c1 | 81.16 | 76.09
CCCc1nccn1CCN1CCCS1(=O)=O | - | -2.84
Nc1noc(-c2ccc(Cl)cc2)n1 | -0.09351 | 10.61
CCOc1cccc(CS(=O)(=O)Cc2ccnn2C)n1 | 12.98 | -10.94
CC(C)c1nnc2n1CC(N)CC2 (centres unmarked) | -6.733 | -
CCC1(CO)CCCN(c2ccncc2F)C1 (centres unmarked) | 31.81 | -
CCC(C)(NC(=O)Nc1ncnn1C)c1nccs1 (centres unmarked) | -14.32 | -
CN1CCN(C2CNC2)CC1 | 3.989 | -
CN(C)c1ncccc1CNS(=O)(=O)c1ccccc1 | 53.21 | -
CN(CC(=O)N[C@@H]1COCC[C@H]1O)Cc1ccccn1 | 11.11 | -
COCCN1CCN(Cc2cccn2C)CC1=O | - | -3.53
CC(C)NC(=O)N1CCCC(S(C)(=O)=O)C1 (centres unmarked) | - | 5.631
CN1CCC(CCO)CC1 | - | 7.367
NCCn1cc(C(=O)N2CCCCCCC2)nn1 | 22.28 | -
Cc1noc2ncn(CC(=O)NC3CC3)c(=O)c12 | - | -1.625
CN(CC(N)=O)C(=O)Cc1cnn(-c2ccccc2)c1 | - | -17.93
CC1CCCCN1S(=O)(=O)NCc1ccccn1 (centres unmarked) | 10 | -
Cc1nsc(N2CCN(CCS(C)(=O)=O)CC2)n1 | - | -3.793
CCn1cc(NC(=O)c2ccc(C)n2C)cn1 | 30.17 | -
O=C1NCCCCC1N1CCNCC1 (centres unmarked) | - | 0.1373
O=C1CCN(Cc2cc(Br)cc3cccnc23)CCN1 | 65.19 | 59.43
CC(C)c1ccc(C(=O)N2CCC(O)CC2)cc1 | 35.38 | -
CCOCCN1CCN(Cc2nnc(OCC)s2)CC1 | 14.81 | 70.56
N#Cc1ccc2nc[nH]c2c1 | -4.812 | -
Cc1ccc(S(=O)(=O)Nc2ccc(C(N)=O)cc2)cc1 | 48.22 | -
O=C1CNc2ccncc2N1 | 9.91 | -
CC(C)Oc1cccc(CN)c1 | 42.37 | 41.01
Cc1cccc(OCCc2noc(C3CNC3)n2)c1 | 106.7 | 114.8
CC(C)CCn1ccc(NC(=O)C2(O)CCC2)n1 | 48.76 | 65.4
CCN(CCS(=O)(=O)c1ccccc1)CC(=O)N(C)C | 92.27 | 94.61
O=C(NCCn1ccnc1)N1CCc2sccc2C1 | 27.16 | -
Cc1cccc(CN2CCC(C(=O)N(C)C)CC2)c1 | - | 11.59
COCCCOC1CN(C(=O)c2ccc(Cl)cn2)C1 | 61.68 | 66.75
COc1cc2c(cc1CN(C)[C@H]1COC[C@@H]1O)OCO2 | 13.46 | -
CC(NC(=O)CNc1cc(F)cc(Br)c1)C(=O)N(C)C (centres unmarked) | 61.59 | 58.66
Cc1ccccc1CC(=O)NCC1(CO)CC1 | 2.012 | -
CC(N)C(=O)NCCN(C)C (centres unmarked) | 10.12 | -
CCc1cccc2c(C(C)=O)cn(CC(N)=O)c12 | 19.78 | -
COc1ccc(N2CCCN(CCC(N)=O)CC2)cc1 | 61.43 | -
CC(C)(C)c1ccc2c(c1)C(N)C(=O)N2 (centres unmarked) | 104 | 72.52
CC(C)n1ccnc1CN1CCN(c2nc[nH]n2)CC1 | 3.897 | -
O=C(NCC1CCCO1)c1n[nH]c2c1CCCC2 (centres unmarked) | - | 10.19
CC1(C#N)CCNC1 (centres unmarked) | 3.126 | 2.484
O=C(COc1ccccc1)Nn1cnnc1 | 10.6 | -
CCn1cc(S(=O)(=O)NCc2ccccc2F)cn1 | 27.57 | -
COc1ncc(C)cc1NC(=O)CC1CCCO1 (centres unmarked) | - | -4.113
Cc1nn(CCNCCS(C)(=O)=O)c(C)c1Br | 8.548 | -
NC1(c2nc(C3CC3)cc(=O)[nH]2)CCCC1 | 51.9 | -
O=C(NC1CC1)N1CCN(c2ncccc2Cl)CC1 | 52.49 | -
CN1CCOC(CNC(=O)CSCc2ccncc2)C1 (centres unmarked) | -0.9291 | -
CC1CCCN(CCNC(=O)CN(C)S(C)(=O)=O)C1 (centres unmarked) | -5.892 | -
CCNc1nnc(SCc2ccnn2C)s1 | 25.13 | 17.54
O=C(CNc1ccc(Br)cc1)NCc1ncc[nH]1 | 60.07 | 29.74
CSCCC(OC(=O)c1ccc(F)cc1)C(N)=O (centres unmarked) | 13.47 | -
NC(=O)C1CCCN(CCCc2ccccc2)C1 (centres unmarked) | 19.56 | -
CN1CCCC2(CCN(C(=O)N3CCCC3)C2)C1=O (centres unmarked) | 4.425 | -
CC1CNCCS(=O)(=O)C1 (centres unmarked) | 11.63 | -
N#Cc1cccc(CSc2nnc(N)s2)c1 | - | 35.77
CS(=O)(=O)NCCCc1cnc2ccccc2c1 | 37.45 | -
CCCNC(=O)CNC(=O)c1ccc(O)nc1 | - | 10.59
COc1cccc(CNS(=O)(=O)Cc2ccon2)c1 | 13.77 | -4.469
CCOc1ccc(Cn2nc(COC)oc2=O)nc1 | 66.01 | 71.84
NCc1cccc(N)n1 | 10.07 | -
NC(=O)COc1cccc(C(=O)N2CCCCCC2)c1 | 12.74 | -
c1cnc(NCc2ccc(N3CCOCC3)nc2)nc1 | -14.39 | -
COc1cc2c(nn1)CCNC2 | -54.43 | -
O=c1[nH]cnc2cccc(O)c12 | -1.923 | 50.78
CCCc1ccc(CN2CCOCC(CO)C2)o1 (centres unmarked) | - | -4.582
NC(=O)c1ncsc1Cl | 3.827 | -
COc1ccc(NC(=O)CCOCC(C)C)c(OC)c1 | - | 18.6
CCN1C[C@H](NC(=O)c2cnc(SC)nc2)[C@@H](OC)C1 | 49.66 | 25.78
Cc1cccc(NCC2CCN(CCS(C)(=O)=O)C2)n1 (centres unmarked) | 4.709 | -
Cc1ccc(NC(=O)CN(C)CC(=O)N(C)C)cc1C | 40.34 | -
CC(OC(=O)c1ccc2c(c1)OCO2)C(=O)NC1CC1 (centres unmarked) | - | -1.749
NC(=O)N1CCCC(C(=O)NC2CCCCC2)C1 (centres unmarked) | - | -1.249
CC(C)c1nnc(CNC(=O)C2=COCCC2)n1C | - | -3.682
Brc1ccc(N2CCNCC2)nc1 | 57.67 | -
COCCNC(=O)c1cc(-c2ccccc2F)no1 | 79.06 | 72.98
Cc1ccc(S(=O)(=O)Nc2ccncc2)cc1C | 4.802 | -

9 of the entries, repeated:

CN(C)c1ncccc1CNS(=O)(=O)c1ccccc1 gave Mtb glucose medium: 53.21%.
COCCN1CCN(Cc2cccn2C)CC1=O gave Mtb cholesterol medium: -3.53%.
CC1CCCN(CCNC(=O)CN(C)S(C)(=O)=O)C1 (centres unmarked) gave Mtb glucose medium: -5.892%.
Cc1ccc(NC(=O)CN(C)CC(=O)N(C)C)cc1C gave Mtb glucose medium: 40.34%.
CC(C)(C)c1ccc2c(c1)C(N)C(=O)N2 (centres unmarked) gave Mtb glucose medium: 104%; Mtb cholesterol medium: 72.52%.
CC(C)Oc1cccc(CN)c1 gave Mtb glucose medium: 42.37%; Mtb cholesterol medium: 41.01%.
COCCNC(=O)c1cc(-c2ccccc2F)no1 gave Mtb glucose medium: 79.06%; Mtb cholesterol medium: 72.98%.
NCc1cccc(N)n1 gave Mtb glucose medium: 10.07%.
CN1CCCC2(CCN(C(=O)N3CCCC3)C2)C1=O (centres unmarked) gave Mtb glucose medium: 4.425%.